Pooled drug test results. Numbers come from NIAID ChemDB, via PubChem.

Common to all: growth or infection tests; agent: HIV-1; read-out: EC50

Blank or dashed fields: not listed here.

SMILES | cells | changes | read by | strain | value
Clc1ccccc1OCc1ccccc1 | C8166 | - | syncytia | IIIB | 29.36 µg/mL
CCN(CC)C(=O)OCC1CN(C(=O)c2cc(OC)c(OC)c(OC)c2)CCN1C(=O)c1cc(OC)c(OC)c(OC)c1 | MDM | - | RT activity | BaL | 11 µM
Cc1cn([C@H]2C=C[C@@H](CO)O2)c(=O)[nH]c1=O | CEM | - | - | - | 0.33 µM
COc1cccc(C(=O)[C@@H]2[C@@H](c3ccc([N+](=O)[O-])c(OC)c3)[C@](C#N)(C(N)=O)[C@H]3CCc4cc(C)ccc4N23)c1 | 293T | - | luciferase | - | >60 µM
[N-]=[N+]=N[C@H]1C[C@@H](CO)O[C@H]1n1cnc2c(NC3CCCC3)ncnc21 | MT-4 | - | - | IIIB | >125 µg/mL
Nc1ncnc2c1ccn2[C@H]1C[C@@H](O)[C@H](O)[C@@H]1O | CEM | - | - | IIIB | >250 µg/mL
[N-]=[N+]=N[C@H]1C[C@@H](CO)O[C@H]1n1cnc2c(NC3CCCCC3)ncnc21 | MT-4 | - | - | IIIB | >125 µg/mL
COc1ccc(/C=C/C(=O)c2ccc(OC)cc2)cc1 | MT-4 | - | MTT | IIIB | >400 µM
[N-]=[N+]=NC[C@H]1O[C@@H](n2cnc3c(NC(=O)Nc4ccccc4)ncnc32)[C@H](O)[C@@H]1CC(=O)O | MT-2 | - | cytopathic effect / neutral red | LAI | >149 µM
C=C(C)[C@@]12OC3(c4ccccc4)O[C@@H]1[C@@H]1[C@H](O)[C@@](C)(O)[C@@H](OC(C)=O)[C@@]4(O)[C@@H](C[C@H](C)[C@@H]4O)[C@@]1(O3)[C@H](C)[C@@H]2OC(=O)c1ccccc1 | C8166 | - | MTT | - | 0.13 µg/mL
O=[N+]([O-])c1ccc(COc2ccc([N+](=O)[O-])cc2)cc1 | C8166 | - | syncytia | IIIB | 58.2 µg/mL
COC(=O)CC(OP(=O)(OC[C@@H]1C=C[C@H](n2cc(C)c(=O)[nH]c2=O)O1)OC(CC(=O)OC)c1ccc(OC(C)=O)cc1)c1ccc(OC(C)=O)cc1 | CEM | - | - | - | 0.25 µM
O=C(C(=O)N1CCN(C(=O)c2ccccc2)CC1)c1cnc2ccccc2n1 | HeLa | - | luciferase / reporter gene | - | <1 µM
COC(=O)[C@H](C)NP(=O)(OC[C@@H]1C=C[C@H](n2cc(C)c(=O)[nH]c2=O)O1)Oc1ccccc1Br | PBMC | RT-Y181C | p24 | A17 | 0.042 µM
O=[N+]([O-])c1ccccc1OCc1ccccc1 | C8166 | - | syncytia | IIIB | 12.53 µg/mL
COc1ccc2[nH]c(=O)c(CN(Cc3cccnc3)S(=O)(=O)c3cccc4nsnc34)cc2c1 | U1 | - | p24 / ELISA | IIIB | 0.168 µM
Cc1cn([C@H]2C[C@H](N=[N+]=[N-])[C@@H](CO)O2)c(=O)[nH]c1=O | C8166 | - | syncytia | IIIB | 0.0024 µg/mL
N=C(N)c1ccc(-c2ccc(-c3ccc(C(=N)N)cc3)o2)cc1 | - | - | - | - | 5 µM
Nc1ncnc2c1ccn2[C@H]1C=C[C@@H](CO)C1 | PBMC | - | RT activity | IIIB | 0.4 µM
CC(C)CCC[C@@H](C)[C@H]1CC[C@H]2[C@@H]3CC[C@H]4C[C@@H](CCC=C(c5cc(Cl)c(O)c(C(=O)O)c5)c5cc(Cl)c(O)c(C(=O)O)c5)CC[C@]4(C)[C@H]3CC[C@]12C | CEM + CEM-SS | - | cytopathic effect | RF | 2–15 µM
Nc1cc(O)c2cc(N=Nc3ccc(N=Nc4ccc(N=Nc5ccc6cc(S(=O)(=O)O)cc(S(=O)(=O)O)c6c5)c5ccccc45)c4cc(S(=O)(=O)O)ccc34)c(S(=O)(=O)O)cc2c1 | CEM | - | - | - | 7 µM
CSc1cc(N)nc(S[C@@H](C)c2cc3ccoc3cn2)n1 | MT-4 | - | p24 | IIIB | <0.008 µM
CCN(CC)C(=O)OCC1CN(C(c2ccccc2)c2ccccn2)CCN1C(=O)c1cc(OC)c(OC)c(OC)c1 | MDM | - | RT activity | BaL | >10 µM
Cc1ccc(C)n1-c1ccc(C(=O)O)c(O)c1 | PBMC/5.25M7 | - | luciferase / cell fusion | CMU02 X4 CLADE EA | 34.5 µM
Cc1cc(C)cc(S(=O)(=O)c2c(C(=O)NC(C)C(N)=O)[nH]c3ccc(Cl)cc23)c1 | C8166 | - | p24 | EFV-resistant (RT K103R V179D P225H) | <0.04 µM
CC(=O)Nc1ccc(C=Cc2ccc(NC(=O)Nc3ccc(C=Cc4ccc(NC(C)=O)cc4S(=O)(=O)O)c(S(=O)(=O)O)c3)cc2S(=O)(=O)O)c(S(=O)(=O)O)c1 | CEM | - | - | - | 4 µM
Cc1cn([C@H]2C[C@H](F)[C@@H](CO)O2)c(=O)[nH]c1=S | MT-4 | - | cytopathic effect | IIIB | 1 µM
Cc1cc(C)cc(S(=O)(=O)c2c(C(=O)NCC(=O)NC(C)C(=O)NN)[nH]c3ccc(Cl)cc23)c1 | C8166 | - | p24 | EFV-resistant (RT K103R V179D P225H) | <1 µM
C/C(=C(/CCO)SS/C(CCO)=C(\C)N(C=O)Cc1cnc(C)nc1N)N(C=O)Cc1cnc(C)nc1N | MOLT-4/IIIB + MOLT-4 | - | - | IIIB | <125 µM
C=Cc1cn([C@H]2C[C@H](F)[C@@H](CO)O2)c(=O)[nH]c1=O | MT-4 | - | cytopathic effect | IIIB | 2.4 µM
CNC(=O)NC[C@H]1O[C@@H](n2cnc3c(NC(=O)Nc4ccccc4)ncnc32)[C@@H]2OC(=O)C[C@@H]21 | MT-2 | - | cytopathic effect / neutral red | LAI | >34 µM
COc1ccc(C(=O)/C=C/c2ccccc2)c(O)c1 | MT-4 | - | MTT | IIIB | >400 µM
Cc1cn([C@H]2C[C@H](F)[C@@H](CO)O2)c(=O)nc1NO | MT-4 | - | cytopathic effect | IIIB | 110 µM
COC(=O)[C@H](C)NP(=O)(OC[C@@H]1C=C[C@H](n2cc(C)c(=O)[nH]c2=O)O1)Oc1ccc(Cl)cc1 | PBMC | - | p24 | IIIB WT | 0.001 µM
CCN(CC)C(=O)OCC1CN(C(=O)c2cc(OC)c(OC)c(OC)c2)CCN1C(c1ccccc1)c1ccccc1 | MDM | - | RT activity | BaL | 3 µM
O=S(=O)(O)c1cc2ccc1/C=C\c1ccc(cc1S(=O)(=O)O)N=Nc1ccc(c(S(=O)(=O)O)c1)/C=C\c1ccc(cc1S(=O)(=O)O)N=N2 | CEM | - | - | - | 5 µM
O=C1OC(C(O)Cn2ccc(=O)[nH]c2=O)C(OCc2ccccc2)=C1OCc1ccccc1 | MT-4 | - | - | - | >50 µg/mL
NC(=O)CC[C@H](NC(=O)COc1cccc(NC(=O)[C@@H](N)Cc2ccc(O)cc2)c1)C(=O)N[C@@H](Cc1c[nH]c2ccccc12)C(=O)N[C@@H](CC(=O)O)C(=O)N[C@@H](Cc1ccccc1)C(=O)NCC(=O)O | MT-4 | - | syncytia | GUN1 WT | >100 µg/mL
COc1ccc(/C=C/C(=O)c2ccc(OC)cc2OC)cc1 | MT-4 | - | MTT | IIIB | >400 µM
O=C(NCc1ccc2c(c1)[C@@H](O)[C@@H](O)c1cc(CNC(=O)OCc3ccccc3)ccc1C2=O)OCc1ccccc1 | PBL | - | syncytia | - | 10 µM
Nc1nc2c(ccn2[C@H]2C=C[C@@H](CO)C2)c(=O)[nH]1 | CEMx174 + CEM | - | RT activity | LAI | 25 µM
c1cc(-c2ccc(-c3ccc(C4=NCCN4)cc3)o2)ccc1C1=NCCN1 | - | - | - | - | 1 µM
COC(=O)[C@H](C)NP(=O)(OC[C@@H]1C=C[C@H](n2cc(C)c(=O)[nH]c2=O)O1)Oc1ccc(Br)cc1Cl | PBMC | RT-Y181C | p24 | A17 | 0.031 µM
O=C1O/C(=C\Cn2ccc(=O)[nH]c2=O)C(O)=C1O | MT-4 | - | - | - | >50 µg/mL
COc1ccc2nc(C(=O)C(C#N)N3CCN(C(=O)c4ccccc4)CC3C)ccc2c1 | HeLa | - | luciferase / reporter gene | - | <1 µM
Cc1cn([C@H]2C[C@H](F)[C@@H](CO)O2)c(=O)nc1N | MT-4 | - | cytopathic effect | IIIB | 2 µM
C[C@@H]1CN(C(=O)c2ccccc2)CCN1C(C#N)C(=O)c1cnc2ccccc2n1 | HeLa | - | luciferase / reporter gene | - | <1 µM
CO[C@@H]1C[C@H](n2ncc3c(N)ncnc32)[C@@H](O)[C@H]1O | CEM | - | - | IIIB | >250 µg/mL
Cc1cc(C)cc(Sc2cc(CCCO)[nH]c(=O)c2[N+](=O)[O-])c1 | CEM + CEM-SS | - | cytopathic effect | LAI | 0.8 µM
Cc1cc(C)cc(S(=O)(=O)c2c(C(=O)NC(C)C(=O)NN)[nH]c3ccc(Cl)cc23)c1 | C8166 | - | p24 | IIIB | <0.07 µM
O=C(/C=C/c1ccc(O)cc1)c1ccccc1O | MT-4 | - | MTT | IIIB | >400 µM
O=S(=O)(O)O.O=S(=O)(O)O.O=S(=O)(O)O.O=S(=O)(O)O.O=S(=O)(O)O.O=S(=O)(O)O.O=S(=O)(O)O.O=S(=O)(O)O.O=S(=O)(O)O.O=S(=O)(O)O.O=S(=O)(O)O.O=S(=O)(O)O.OC[C@H]1O[C@@H]2O[C@H]3[C@H](O)[C@@H](O)[C@@H](O[C@H]4[C@H](O)[C@@H](O)[C@@H](O[C@H]5[C@H](O)[C@@H](O)[C@@H](O[C@H]6[C@H](O)[C@@H](O)[C@@H](O[C@H]7[C@H](O)[C@@H](O)[C@@H](O[C@H]1[C@H](O)[C@H]2O)O[C@@H]7CO)O[C@@H]6CO)O[C@@H]5CO)O[C@@H]4CO)O[C@@H]3CO | MT-4 | - | cytopathic effect / MTT | IIIB | 6.5 µg/mL
[N-]=[N+]=NC[C@H]1O[C@@H](n2cnc3c(N)ncnc32)[C@H](O)[C@@H]1CC(=O)O | MT-2 | - | cytopathic effect / neutral red | LAI | >62 µM
Nc1ccc2cc(S(=O)(=O)O)cc(O)c2c1N=Nc1ccc(NC(=O)Nc2ccc(N=Nc3c(N)ccc4cc(S(=O)(=O)O)cc(O)c34)c(S(=O)(=O)O)c2)cc1S(=O)(=O)O | CEM | - | - | - | 10 µM
C[C@H]1CN(C(=O)c2ccccc2)CCN1C(C#N)C(=O)c1cnc2ccccc2n1 | HeLa | - | luciferase / reporter gene | - | 1–5 µM
CCc1c(C)nc(Cl)c([N+](=O)[O-])c1S(=O)c1cc(C)cc(C)c1 | CEM + CEM-SS | - | cytopathic effect | LAI | 3 µM
N#CC1C=Cc2ccccc2N1C(=O)c1ccc(Cl)cc1 | PBMC | - | p24 | D34 | <1 µM
O=C(C(=O)N1CCN(C(=O)c2ccccc2)CC1)c1ccc2ccccc2c1 | HeLa | - | luciferase / reporter gene | - | <1 µM
Nc1ccc(N=Nc2ccc(C=Cc3ccc(N=Nc4ccc(N)c5ccc(S(=O)(=O)O)cc45)cc3S(=O)(=O)O)c(S(=O)(=O)O)c2)c2cc(S(=O)(=O)O)ccc12 | CEM | - | - | - | 4 µM
C=C(C)[C@@]12OC3(C)O[C@@H]1[C@@H]1[C@H](O)[C@@](C)(O)[C@@H](O)[C@@]4(O)[C@@H](C=C(C)[C@@H]4OC(C)=O)[C@@]1(O3)[C@H](C)[C@@H]2OC(=O)c1ccccc1 | C8166 | - | MTT | - | 9.93 µg/mL
NC(=O)c1[nH]c2ccc(Cl)cc2c1S(=O)(=O)c1ccccc1 | C8166 | - | p24 | IIIB | <0.007 µM
COc1ccc(/C=C/C(=O)c2ccccc2O)cc1 | MT-4 | - | MTT | IIIB | >400 µM
COc1cccc(C(=O)[C@@H]2[C@@H](c3ccc4c(OC)c(C)c(OC)cc4c3)[C@](C#N)(C(N)=O)[C@H]3CCc4cc(C)ccc4N23)c1 | 293T | - | luciferase | - | >60 µM
N#Cc1cc(Cl)cc(Oc2c(Br)ccc(CC(=O)Nc3ccc(S(N)(=O)=O)cc3Cl)c2F)c1 | MT-4 | K103N/Y181C | - | - | 0.0012 µM
O=C(NCc1ccc(F)cc1)C1C(=O)N(O)C(=O)c2ccccc21 | MT-4 | - | MTT | IIIB | 2.34 µM
COc1cccc(C(=O)C2C(c3ccc(Cl)cc3)C(C#N)(C(N)=O)C3CCc4cc(C)ccc4N23)c1 | 293T | - | luciferase | - | 12.5 µM
CCN(CC)C(=O)OCC1CN(C(=O)c2cc(OC)c(OC)c(OC)c2)CCN1 | MDM | - | RT activity | BaL | >100 µM
O=C1OC(C(O)Cn2cc(C(F)(F)F)c(=O)[nH]c2=O)C(OCc2ccccc2)=C1OCc1ccccc1 | MT-4 | - | - | - | >50 µg/mL
C/C1=C\C=C\C2(C)C=C(CO)C(C)CC23OC([O-])C(C3=O)C(O)/C=C/C2(C)C=C(C=O)C(C)CC23OC([O-])C(C3=O)C(O)/C(C)=C/C=C/C2C=C(CO)C(C)CC23OC([O-])C(C3=O)C(O)/C=C/C2(C)C=C(C=O)C(C)CC23OC([O-])C(C3=O)C1O | MOLT-4/(MOLT-4/1(IIIB) + MOLT-4 | - | syncytia | IIIB | >100 µg/mL
N#CC(C(=O)c1cc2ccccc2cn1)N1CCN(C(=O)c2ccccc2)CC1 | HeLa | - | luciferase / reporter gene | - | <1 µM
CC1=CC[C@]2(C)CC(=O)[C@]3(C)C(=O)C=C(C(C)C)[C@@H]3[C@H]2CC1 | PBMC | - | RT activity | LAV | 42.1 µM
COc1ccc(C(=O)/C=C/c2ccc(OC)c(OC)c2)c(O)c1 | MT-4 | - | MTT | IIIB | >400 µM

The first 7 rows once more:

| SMILES | cells | changes | read by | strain | value |
|---|---|---|---|---|---|
| Clc1ccccc1OCc1ccccc1 | C8166 | - | syncytia | IIIB | 29.36 µg/mL |
| CCN(CC)C(=O)OCC1CN(C(=O)c2cc(OC)c(OC)c(OC)c2)CCN1C(=O)c1cc(OC)c(OC)c(OC)c1 | MDM | - | RT activity | BaL | 11 µM |
| Cc1cn([C@H]2C=C[C@@H](CO)O2)c(=O)[nH]c1=O | CEM | - | - | - | 0.33 µM |
| COc1cccc(C(=O)[C@@H]2[C@@H](c3ccc([N+](=O)[O-])c(OC)c3)[C@](C#N)(C(N)=O)[C@H]3CCc4cc(C)ccc4N23)c1 | 293T | - | luciferase | - | >60 µM |
| [N-]=[N+]=N[C@H]1C[C@@H](CO)O[C@H]1n1cnc2c(NC3CCCC3)ncnc21 | MT-4 | - | - | IIIB | >125 µg/mL |
| Nc1ncnc2c1ccn2[C@H]1C[C@@H](O)[C@H](O)[C@@H]1O | CEM | - | - | IIIB | >250 µg/mL |
| [N-]=[N+]=N[C@H]1C[C@@H](CO)O[C@H]1n1cnc2c(NC3CCCCC3)ncnc21 | MT-4 | - | - | IIIB | >125 µg/mL |

ECn: concentration that inhibits the pathogen or its effect by n%. a–b is a range or a potency band. Neighbouring rows are from separate reports.